Pooled drug test results. Numbers come from NIAID ChemDB, via PubChem.

Shared fields: whole-cell or culture tests

A number after MIC or MFC names an inhibition level or a share of isolates.

SMILES | changes | agent | tested at | method | endpoint | strain or isolate | value
c1ccc(C2=NN(c3ccccc3)C(c3ccc(OCCCCCOc4ccc(C5CN(c6ccccc6)N=C5c5ccccc5)cc4)cc3)C2)cc1 |  | Aspergillus janus |  | broth dilution | MIC |  | 8 µg/mL
OO |  | Aspergillus terreus |  | agar | MIC99 | UAB680 | 2000 µM
COc1cc(/C=C/C(C)=O)ccc1O |  | Aspergillus oryzae |  | broth dilution | MFC | MTCC 262 | 1041 µM
Cc1ccc(S(=O)(=O)CNc2oc3[nH]c(=O)[nH]c(=O)c3c2-c2ccsc2C=O)cc1 |  | Aspergillus oryzae | 50 µg/mL | agar diffusion / agar | zone |  | 14 mm
Cc1ccc2c(c1)C(C1SCC(=O)N1NC(=O)N1c3ccccc3C=Cc3ccccc31)C(c1ccccc1)=N2 |  | Aspergillus terreus | 1000 µg/mL | agar diffusion | zone | MTCC-1782 | 15 mm
CCC(C)n1ncn(-c2ccc(N3CCN(c4ccc(OC[C@H]5CO[C@](Cn6cncn6)(c6ccc(Cl)cc6Cl)O5)cc4)CC3)cc2)c1=O | sakA | Aspergillus fumigatus | 2 µg/mL | broth dilution | inhibition | AF293 | 99.85%
CCCCCCCCOC(=O)[C@]1(O)C[C@@H](O)[C@@H](O)[C@H](OC(=O)/C=C/c2ccc(O)c(O)c2)C1 |  | Aspergillus ochraceus |  | absorbance | MIC50 | CB 108.08 | 1100 µM
O=C(NN=CC1C(c2ccccc2)=Nc2ccc(Cl)cc21)N1c2ccccc2C=Cc2ccccc21 |  | Aspergillus oryzae | 1000 µg/mL | agar diffusion | zone | MTCC-3567 | 13 mm
CC(C)=CCCC(C)CCO |  | Aspergillus parasiticus |  | broth dilution | MIC | TISTR 3018 | 3600 µg/mL
C[C@@H]1C/C=C/C=C/C=C/C=C/[C@H](OC2O[C@H](C)[C@@H](O)[C@H](N)[C@@H]2O)CC2O[C@](O)(C[C@@H](O)C[C@H]3O[C@@H]3/C=C/C(=O)O1)C[C@H](O)[C@H]2C(=O)O |  | Aspergillus versicolor |  |  | MIC50 | Species complex | 8 µg/mL
CC(=O)N1CCN(c2ccc(OC[C@H]3CO[C@](Cn4ccnc4)(c4ccc(Cl)cc4Cl)O3)cc2)CC1 |  | Aspergillus versicolor |  | broth dilution | MFC | ATCC 11730 | 500 µg/mL
c1ccc(C2=NN(c3ccccc3)C(c3ccc(OCCCCOc4ccc(C5CC(c6ccccc6)=NN5c5ccccc5)cc4)cc3)C2)cc1 |  | Aspergillus janus |  | broth dilution | MIC |  | 16 µg/mL
NC(=S)NN=Cc1cccs1 |  | Aspergillus nomius |  | broth dilution | MIC | MCT 00328 | 125 µg/mL
Cc1ccc(-c2c(NCS(=O)(=O)c3ccc(C)cc3)oc3[nH]c(=O)[nH]c(=O)c23)cc1 |  | Aspergillus oryzae | 50 µg/mL | agar diffusion / agar | zone |  | 16 mm
NC(=S)N/N=C(/C=C/c1ccccc1)c1ccccc1 |  | Aspergillus parasiticus |  | broth dilution | MIC | MCT 00334 | 500 µg/mL
C/C(=N\NC(=S)Nc1cccc([N+](=O)[O-])c1)c1c(O)ccc2c(C)cc(=O)oc12 |  | Aspergillus niger | 100 µg/mL | agar diffusion / agar | inhibition |  | 80.17%
O=C(/C=C/c1ccc(OCCCCCCCCOc2ccc(/C=C/C(=O)c3ccccc3)cc2)cc1)c1ccccc1 |  | Aspergillus janus |  | broth dilution | MIC |  | 16 µg/mL
Cc1cc(O)c2c(c1)C(=O)c1cc(O)c(O)c(O)c1C2=O | cclA delta | Aspergillus nidulans |  | visual reading | MIC100 |  | 71–142 µM
c1ccc(C2=NN(c3ccccc3)C(c3ccc(OCCCOc4ccc(C5CC(c6ccccc6)=NN5c5ccccc5)cc4)cc3)C2)cc1 |  | Aspergillus janus |  | broth dilution | MIC |  | 8 µg/mL
Cc1ccc2c(c1)C(C=NNC(=O)N1c3ccccc3C=Cc3ccccc31)C(c1ccccc1)=N2 |  | Aspergillus oryzae | 750 µg/mL | agar diffusion | zone | MTCC-3567 | 12 mm
O=C(/C=C/c1ccc(OCCCCCCCCCCCCOc2ccc(/C=C/C(=O)c3ccccc3)cc2)cc1)c1ccccc1 |  | Aspergillus janus |  | broth dilution | MIC |  | 16 µg/mL
Cc1ccc(S(=O)(=O)CNc2oc3[nH]c(=O)[nH]c(=O)c3c2-c2ccc(F)cc2)cc1 |  | Aspergillus oryzae | 50 µg/mL | agar diffusion / agar | zone |  | 18 mm
CCC(C)n1ncn(-c2ccc(N3CCN(c4ccc(OC[C@H]5CO[C@](Cn6cncn6)(c6ccc(Cl)cc6Cl)O5)cc4)CC3)cc2)c1=O |  | Aspergillus lentulus |  | broth dilution | MIC90 |  | 2 µg/mL
O=C(/C=C/c1ccc(OCCCCCCOc2ccc(/C=C/C(=O)c3ccccc3)cc2)cc1)c1ccccc1 |  | Aspergillus janus |  | broth dilution | MIC |  | 8 µg/mL

For reference, 4 entries again:

SMILES	changes	agent	tested at	method	endpoint	strain or isolate	value
c1ccc(C2=NN(c3ccccc3)C(c3ccc(OCCCOc4ccc(C5CC(c6ccccc6)=NN5c5ccccc5)cc4)cc3)C2)cc1		Aspergillus janus		broth dilution	MIC		8 µg/mL
Cc1ccc2c(c1)C(C1SCC(=O)N1NC(=O)N1c3ccccc3C=Cc3ccccc31)C(c1ccccc1)=N2		Aspergillus terreus	1000 µg/mL	agar diffusion	zone	MTCC-1782	15 mm
COc1cc(/C=C/C(C)=O)ccc1O		Aspergillus oryzae		broth dilution	MFC	MTCC 262	1041 µM
O=C(/C=C/c1ccc(OCCCCCCOc2ccc(/C=C/C(=O)c3ccccc3)cc2)cc1)c1ccccc1		Aspergillus janus		broth dilution	MIC		8 µg/mL

Neighbouring rows are from separate reports. Blank or dashed fields: not listed here. Zone: diameter of growth inhibition. a–b is a range or a potency band. Inhibition is in % at the dose shown (toxicity tests: loss of growth or viability).